Values from PubChem BioAssay AID504761 (Drosophila RNAi Screening Center, 2011).
In all, the deposit lists about 22,000 reagents; this is a random part of those that have a named target and a result. Of all reagents, 116 (0.52%) got an active call. 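Calls depend on retest data that are not deposited; infection was ranked per plate without normalising between plates; the unit of the infection score is not given.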 A number with no mark means an inactive call. A plus sign joins genes that one reagent is predicted to hit. Not all columns of the deposit are shown. Not given: the amount of reagent, the time to read-out.

- Purpose: 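Genome-wide fly cell screen for genes dengue virus requires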 (primary screen)
- Cells: D.Mel-2 cells from Drosophila
- Knock-down reagent: long dsRNA against Drosophila genes
- Challenge: infection with dengue virus type 2; dose and infection time not stated
- Detection: 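Per well on two replicate plates, imaging gave the percent of cells positive for viral envelope protein, ranked by infection, and a nuclear count of cells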
- Scale: infection score: higher = more virus-infected cells
- Hit rule: 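Very low infection ranking in both replicate wells (chance probability at most 0.065), then a retest showing infection dropped 1.5-fold or more at p below 0.05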
- Calls: active = confirmed: knock-down lowers infection; inactive = not picked or not confirmed

target	dsRNA	infection score, replicate 1	infection score, replicate 2
CG10086	DRSC14183	8.03	8.07
CG11155	DRSC17205	13.2	6.32
CG11155	DRSC29324	15.5	9.42
CG12689	DRSC17879	17.9	7.28
CG14302	DRSC14781	3.95	9.71
CG43163	DRSC10745	3.03	2.65
CG43163	DRSC10748	3.88	3.98
CG43163	DRSC23670	7.24	8.25
Muc68D	DRSC10569	10.7	8.57
rpk	DRSC12386	13.3	11.1
rpk	DRSC21656	1.93	1.04
Cbp53E	DRSC07356	9.91	
Cbp53E	DRSC24679	5.05	1.63
CG32599	DRSC19433	3.34	5.87
CG32599	DRSC26978	4.52	2.89
DIP-kappa	DRSC01336	0.36	6.61
DIP-kappa	DRSC01337	5.23	5.57
lncRNA:CR30009	DRSC22952	1.78	1.04
lncRNA:CR30009	DRSC29817	8.73	4.06
Shawl	DRSC02209	4.28	16.7
Shawl	DRSC02748	3.59	2.85
Shawl	DRSC24307	18.9	12.5
STUB1	DRSC03282	3.68	5.86
fd59A	DRSC04685	12.4	18.8
fd59A	DRSC25524	0.76	0.86
Uev1A	DRSC09763	11.1	11.2
Sik3	DRSC06505	4.15	3.56
Sik3	DRSC06771	4.09	5.87
Sik3	DRSC29149	5.22	11.5
Sik3	DRSC29722	30.9	6.47
CG13581	DRSC04216	9	5.23
CG15382	DRSC00397	5.67	10.4
CG15382	DRSC24805	1.76	1.5
Ufsp2	DRSC10231	15.2	18
CG32267	DRSC21561	2.42	3.53
CG32267	DRSC27104	10.5	11.6
RpS28a	DRSC15064	9.77	7.93
Rbsn-5	DRSC03094	11.7	5.05
Rbsn-5	DRSC27756	12.4	20
KCNQ	DRSC06121	28.8	19.4
KCNQ	DRSC06230	11.4	17.1
KCNQ	DRSC25242	4.95	3.91
CG3842	DRSC18326	2.27	2.04
CG3842	DRSC26584	2.81	4.74
CG9068	DRSC07329		2.88
CG12923	DRSC06237	12.6	4.46
abs	DRSC12372	13.3	13.3
eca	DRSC22290	1.21	1.45
CG7218	DRSC16216	24.8	22.1
CG7218	DRSC27550	1.85	5.37
CG15571	DRSC18059	0.85	6.67
CG15571	DRSC30098	8.06	32.1
Uqcc1 + CG9948	DRSC09690	3.58	2.92
Oseg5	DRSC03209	2.21	5.77
Ugt37A1	DRSC02114	4.53	5.08
uncNacbeta	DRSC00326	11.7	4.02
CG14262	DRSC14757	4.65	2.81
BoYb	DRSC11637	21	3.41
CG9095	DRSC20150	11.8	7.28
NANS	DRSC15743	6.07	4.63
NANS	DRSC27626	2.45	18.6
tef	DRSC07301	21.4	9.72
tef	DRSC22041	3.56	9.77
tef	DRSC26918	9.92	14.7
CG7766	DRSC18424	0.45	12.5
Magi	DRSC04247	21.8	12.2
Magi	DRSC04451	13.3	27.4
Magi	DRSC26209	18.3	3.54
L (retired record)	DRSC05966	15.7	21.4
L (retired record)	DRSC25281	7.46	4.7
Rbf2	DRSC16816	19.4	16.2
xit	DRSC18364	1.82	8.76
CG13337	DRSC06371	4.8	20.3
CG13337	DRSC28309	2.64	7.47

Part of the list above, limited to “infection score, replicate 1”:
CG43163 [DRSC23670] = 7.24
Muc68D [DRSC10569] = 10.7
rpk [DRSC12386] = 13.3
rpk [DRSC21656] = 1.93
Cbp53E [DRSC07356] = 9.91
Cbp53E [DRSC24679] = 5.05
CG32599 [DRSC19433] = 3.34
CG32599 [DRSC26978] = 4.52
